Measured values from several laboratories, pooled; numbers as filed in NIAID ChemDB.

Common to all: toxicity to cultured cells; cell line: HepG2 2.2.15; read-out: CC50

Neighbouring rows are from separate reports. CCn: concentration that lowers growth or viability of the cells by n%. Blank or dashed fields: not listed here.

{"structure": "N#C[C@]1(CO)/C(=C\\F)[C@@H](n2cnc3c(=O)[nH]c(N)nc32)CC1O", "method": "MTT", "value": "169 µM"}
{"structure": "CC1(C)C2CC[C@@]3(C)C4CC[C@@]5(C)CC[C@](C)(C(=O)O)C[C@H]5C4=CC(=O)C3[C@@]2(C)CC[C@@H]1O[C@@H]1O[C@H](C(=O)O)[C@@H](O[C@@H]2O[C@H](C(=O)O)[C@@H](O)[C@H](O)[C@H]2O)[C@H](O)[C@H]1O", "value": ">100 µM"}
{"structure": "O=C(N[C@H](CO)Cc1ccccc1)/C(NC(=O)c1ccc(F)cc1)=C(/Br)c1ccccc1", "method": "MTT", "value": ">100 µM"}
{"structure": "COc1ccc2cc3[n+](cc2c1OC)CCc1cc2c(cc1-3)OCO2", "value": "50 µM"}
{"structure": "COCCCCCCCCCN1C[C@H](O)[C@@H](O)[C@H](O)[C@H]1CO", "value": ">2000 µM"}
{"structure": "C[C@H](Cn1cnc2c(N)ncnc21)OCP(=O)(O)O", "value": ">100 µM"}
{"structure": "OC[C@@H]1[C@@H](O)[C@H](O)[C@@H](O)CN1CCCCCCCCCCN1C[C@H](O)[C@@H](O)[C@H](O)[C@H]1CO", "value": ">1000 µM"}
{"structure": "COC(=O)CC(O)(CCCC(C)(C)O)C(=O)O[C@@H]1C(OC)=C[C@]23CCCN2CCc2cc4c(cc2[C@@H]13)OCO4", "value": "0.5 µM"}
{"structure": "Nc1nc2c(ncn2CC2(OCP(=O)(O)O)CC2)c(=O)[nH]1", "value": ">1000 µM"}
{"structure": "C=CCSSCC=C", "value": ">100 µM"}
{"structure": "CCCOCCCCCCN1C[C@H](O)[C@@H](O)[C@H](O)[C@H]1CO", "value": ">2000 µM"}
{"structure": "C[C@@H]1CC[C@H]2[C@@H](C)C(=O)O[C@@H]3OC4(C)CC[C@@H]1[C@]32OO4", "value": "160 µM"}
{"structure": "CC1(C)C2CCC(N3C[C@H](O)[C@@H](O)[C@H](O)[C@H]3CO)C1C2", "value": "800 µM"}
{"structure": "Nc1ncnc2c1ncn2C[C@@H](CF)OCP(=O)(O)O", "value": ">100 µM"}
{"structure": "O=C(O)[C@H]1O[C@@H](Oc2cc3oc(-c4ccccc4)cc(=O)c3c(O)c2O)[C@H](O)[C@@H](O)[C@@H]1O", "value": ">100 µM"}

A second listing of 2 rows from above:

| structure | method | value |
|---|---|---|
| COC(=O)CC(O)(CCCC(C)(C)O)C(=O)O[C@@H]1C(OC)=C[C@]23CCCN2CCc2cc4c(cc2[C@@H]13)OCO4 |  | 0.5 µM |
| Nc1nc2c(ncn2CC2(OCP(=O)(O)O)CC2)c(=O)[nH]1 |  | >1000 µM |